Anti-infective test results gathered from many reports (values: NIAID ChemDB through PubChem).

Shared fields: growth or infection tests; species: Human cytomegalovirus

An empty or dashed field is not shown. Neighbouring rows are from separate reports. a–b is a range or a potency band. ECn: concentration that inhibits the pathogen or its effect by n%.

| structure | conditions | strain | method | cells | measure | result |
|---|---|---|---|---|---|---|
| Cc1cc(C)cc(Cn2c(=O)cc(N3CCNCC3)n(CC#N)c2=O)c1 |  | AD169 |  |  | EC50 | >570 µM |
| CCCCCCCc1cc2cnc(OC3CCCC3)nc2o1 |  | AD169 |  |  | EC50 | 3 µM |
| CCc1cn([C@H]2C[C@H](O)[C@@H](CO)O2)c(=S)nc1N |  | AD169 | plaque count | MRC-5 | EC50 | >277.4 µM |
| CC(=O)n1c(Cl)c([C@@H]2O[C@H](CO)[C@@H](O)[C@H]2O)c2cc(Cl)c(Cl)cc21 |  |  | plaque count | HFF | EC50 | >100 µM |
| O=C(Nc1ccc(NC(=S)Nc2cc(C(F)(F)F)cc(C(F)(F)F)c2)cc1)c1csnn1 |  | AD169 | virus yield | HFF | EC50 | 0.12 µM |
| Nc1nc2c(ncn2COC(CO)CO)c(=O)[nH]1 |  |  | plaque count | HFF | EC50 | 7.7 µM |
| Nc1nc2c(ncn2COC(CO)CO)c(=O)[nH]1 |  |  | plaque count | HFF | EC50 | 7.4 µM |
| OCCSCc1c(Cl)nc2ccc(Cl)cn12 |  | TOWNE | plaque count | HFF | EC50 | >100 µM |
| O=c1c(Cl)cc2nnn3c2n1[C@@H]1O[C@H](C3)[C@@H](O)[C@H]1O |  |  |  | Huh7 | EC90 | 2.1 µM |
| Nc1nc2c(ncn2COC(CO)CO)c(=O)[nH]1 |  | TOWNE | plaque count | HFF | EC50 | 7.4 µM |
| Nc1nc2c(ncn2C=C2CC2CO)c(=O)[nH]1 |  | VR6189 (ganciclovir-susceptible) | plaque count |  | EC90 | 4.9 µM |
| C=CCOc1cc(O)c2c(=O)c3cc(OC)ccc3[nH]c2c1 |  |  | plaque count | HEL | EC50 | <2.5 µM |
| CC1=CC(CO)(CO)C[C@H]1n1cnc2c(N)ncnc21 |  | AD169 | cytopathic effect | HEL | EC50 | >100 µg/mL |
| Cc1cn([C@@H]2OC(O[Si](C)(C)C(C)(C)C)C3(OS(=O)(=O)C=C3NCCC(=O)OCc3ccccc3)C2O[Si](C)(C)C(C)(C)C)c(=O)n(C)c1=O |  | AD169 | plaque count | HEL | EC50 | >400 µM |
| c1ccc(Sc2ccc(NC3CCCCCC3)cc2)cc1 |  | AD169 | plaque count |  | EC50 | 43 µM |
| CCOCn1ccc(=S)n(Cc2cc(C)cc(C)c2)c1=O |  | AD169 |  |  | EC50 | 55 µM |
| O=c1cc(NCCO)c2nnn3c2n1[C@@H]1O[C@H](C3)[C@@H](O)[C@H]1O |  |  |  | Huh7 | EC90 | >100 µM |
| CN(C)c1ccc(Oc2ccc(O)cc2)cc1 |  | AD169 | plaque count |  | EC50 | 13.6 µM |
| CC(O)c1cn([C@@H]2O[C@H](CO)[C@@H](O)[C@@H]2O)c(=S)[nH]c1=O |  | 93-1R | plaque count | MRC-5 | EC50 | >213 µM |
| CCOP(=O)(CCCOCn1cnc2c(=O)[nH]c(N)nc21)OCC |  | AD169 | plaque count | MRC-5 | EC50 | >2780 µM |
| O[C@@H]1[C@H](O)[C@H](O)CO[C@H]1n1c(Br)nc2cc(Cl)c(Cl)cc21 |  | AD169 | plaque count | MRC-5 | EC50 | 1.4 µM |
| O=[N+]([O-])c1ccc(CSc2nnnc3c2ncn3[C@@H]2O[C@H](CO)[C@@H](O)[C@H]2O)cc1 |  |  | plaque count | HFF | EC50 | >100 µM |
| Nc1nc2c(ncn2CO[C@H](CO)CCP(=O)(O)O)c(=O)[nH]1 |  | AD169 | plaque count | MRC-5 | EC50 | 66 µM |
| CN(C)c1cccc(CCNC(=S)Nc2ccc(NC(=O)c3ccccc3F)cc2)c1C(F)(F)F |  |  | virus yield | HFF | EC50 | >0.5 µg/mL |
| Cc1cc(C)cc(Cn2c(=O)ccn(Cc3cccs3)c2=O)c1 |  | AD169 |  |  | EC50 | 15 µM |
| C=C1[C@H](CO)OC[C@@H]1n1cnc2c(N)ncnc21 |  |  |  |  | EC50 | >33.3 µg/mL |
| CN(C)c1ccc(Sc2ccc(NC3CCCCCC3)cc2)cc1 |  | AD169 | plaque count |  | EC50 | 48 µM |
| Nc1nc2c(ncn2COC(CO)CO)c(=O)[nH]1 |  | RC11 | plaque count | MRC-5 | EC50 | 12.75 µM |
| CCN(CC)CC(=O)Nc1ccc(NC(=S)Nc2ccc(NC(C)=O)cc2)cc1Cl |  |  | plaque count |  | EC50 | >10 µg/mL |
| Nc1ncnc2c1ncn2C12CCC(O)C1(CO)C2 |  |  | plaque count | HFF | EC50 | 2.4 µg/mL |
| C=CCN(c1ccc(NC(=S)Nc2ccc(NC(C)=O)cc2)cc1Cl)C1CCCCC1 |  |  | plaque count |  | EC50 | >10 µg/mL |
| Cc1cc(=O)n2c3c1nnn3C[C@H]1O[C@@H]2[C@H](O)[C@@H]1O |  |  |  | Huh7 | EC90 | 15.4 µM |
| OCCSCc1c(Cl)nc2cc(Cl)c(Cl)cn12 |  | TOWNE | plaque count | HFF | EC50 | >100 µM |
| CCOP(=O)(O)CCCCCCCOCn1cnc2c(=O)[nH]c(N)nc21 |  | AD169 | plaque count | MRC-5 | EC50 | >2580 µM |
| Nc1nc2c(ncn2COC(CO)CO)c(=O)[nH]1 |  |  | cytopathic effect | VERO | EC50 | 1–10 µM |
| CCOP(=O)(O)CCCOCn1c(Br)nc2c(=O)[nH]c(N)nc21 |  | AD169 | plaque count | MRC-5 | EC50 | 312 µM |
| N#CCn1c(Cl)cc(=O)[nH]c1=O |  | AD169 |  |  | EC50 | >270 µM |
| CC(=O)Nc1ccc(NC(=S)NC(C)c2ccc(F)cc2)cc1 |  |  | plaque count |  | EC50 | >0.5 µg/mL |
| C=CCOCc1c(Cl)nc2ccc(Cl)cn12 |  | TOWNE | plaque count | HFF | EC50 | 18 µM |
| O=C(Nc1ccc(NC(=S)NCCc2cc3ccccc3o2)cc1)c1cc2ccccc2o1 |  |  | virus yield | HFF | EC50 | >10 µg/mL |
| CSc1nnnc2c1ncn2[C@@H]1O[C@H](CO)[C@@H](O)[C@H]1O |  |  | plaque count | HFF | EC50 | 16 µM |
| Cc1cc(C)cc(Cn2c(=O)cc(Cl)n(Cc3ccccc3)c2=O)c1 |  | AD169 |  |  | EC50 | 96 µM |
| CN(Cc1cnc2nc(N)nc(N)c2n1)c1ccc(C(=O)N[C@@H](CCC(=O)O)C(=O)O)cc1 | 4 h | TOWNE |  | MRC-5 | EC50 | >0.2 µM |
| Nc1ccn([C@@H]2C=C(CO)[C@@H](O)[C@H]2O)c(=O)n1 |  | AD169 | plaque count | HEL | EC50 | 0.6 µg/mL |
| Oc1ccc(Oc2ccc(NC3CCCCCCC3)cc2)cc1 |  | AD169 | plaque count |  | EC50 | 6.7 µM |
| Nc1nc(N)c2ncn(C34CCC(O)C3(CO)C4)c2n1 |  |  | plaque count | HFF | EC50 | >20 µg/mL |
| CN(C)c1cc(=O)n2c3c1nnn3C[C@H]1O[C@@H]2[C@H](O)[C@@H]1O |  |  |  | Huh7 | EC90 | 86.1 µM |
| CN1C=CCC(C(=O)O[C@H]2C[C@H](n3cc(I)c(=O)[nH]c3=O)O[C@@H]2CO)=C1 |  |  | cytopathic effect | HFF | EC50 | 178 µM |
| CN(c1ccc(Oc2ccc(O)cc2)cc1)C1CC1 |  | AD169 | plaque count |  | EC50 | 5.7 µM |
| Nc1nc2c(ncn2[C@@H]2CO[C@H](CO)[C@@H](O)C2)c(=O)[nH]1 |  |  | cytopathic effect | VERO | EC50 | 1–10 µM |
| OC[C@H]1O[C@@H](c2cc(Br)nc3cc(Cl)c(Cl)cc23)C(O)C1O |  |  | plaque count | HFF | EC50 | 30 µM |
| CC(=O)Nc1n[nH]c(=O)c2c1ncn2[C@@H]1O[C@H](CO)[C@@H](O)[C@H]1O |  |  | plaque count | HFF | EC50 | >100 µM |
| Nc1ncnc2c1ncn2C=C1CC1CO |  | AD169 | virus yield | KB | EC90 | 1–2 µM |
| C=C1[C@H](CO)[C@@H](O)C[C@@H]1n1cnc2c(=O)[nH]c(N)nc21 |  |  | plaque count | WI-38 | EC50 | 80 µM |
| OC[C@H]1O[C@@H](c2c(Cl)[nH]c3cc(Cl)c(Cl)cc23)[C@H](O)[C@@H]1O |  |  | plaque count | HFF | EC50 | >100 µM |
| Nc1ccn(C[C@H](CO)OCP(=O)(O)O)c(=O)n1 |  |  |  |  | EC50 | 0.28 µM |
| Nc1nc(=S)n([C@@H]2O[C@H](CO)[C@@H](O)[C@@H]2O)cc1CO |  | AD169 | plaque count | MRC-5 | EC50 | 132 µM |
| OC[C@H]1O[C@@H](n2c(Br)nc3cc(Cl)c(Cl)cc32)[C@H](O)[C@@H]1O |  | TOWNE | virus yield | HFF | EC90 | 0.31 µM |
| O=c1cc(NC2CC2)c2nnn3c2n1[C@@H]1O[C@H](C3)[C@@H](O)[C@H]1O |  |  |  | Huh7 | EC90 | >100 µM |
| Nc1nc2c(ncn2C[C@]2(CO)C[C@H]2CO)c(=O)[nH]1 |  |  | cytopathic effect | VERO | EC50 | 10–100 µM |
| Cc1cc(C)cc(Cn2c(SCc3ccccc3)nccc2=S)c1 |  | AD169 |  |  | EC50 | 4.5 µM |
| O=c1[nH]c(=O)n([C@H]2C[C@H](O)[C@@H](CO)O2)cc1/C=C/I |  |  | cytopathic effect | HFF | EC50 | 116 µM |
| Oc1ccc(Oc2ccc(NC3CCCC3)cc2)cc1 |  | AD169 | plaque count |  | EC50 | 7.1 µM |
| CC1=CC(CO)(CO)C[C@H]1n1ccc(N)nc1=O |  | AD169 | cytopathic effect | HEL | EC50 | >100 µg/mL |
| Nc1nc2c(ncn2COC(CO)CO)c(=O)[nH]1 |  | AD169 | plaque count | HFF | EC50 | 3.8 µM |
| Cc1cn([C@@H]2O[C@H](CO)[C@@H](O)[C@@H]2O)c(=S)nc1N |  | T-137 | plaque count | MRC-5 | EC50 | >264.9 µM |
| C=Cc1cn([C@H]2C[C@H](OC(=O)C3=CN(C)C=CC3)[C@@H](CO)O2)c(=O)[nH]c1=O |  |  | cytopathic effect | HFF | EC50 | 76.5 µM |

For reference, 8 entries again:

| structure | conditions | strain | method | cells | measure | result |
|---|---|---|---|---|---|---|
| Cc1cc(C)cc(Cn2c(=O)cc(Cl)n(Cc3ccccc3)c2=O)c1 |  | AD169 |  |  | EC50 | 96 µM |
| C=CCOc1cc(O)c2c(=O)c3cc(OC)ccc3[nH]c2c1 |  |  | plaque count | HEL | EC50 | <2.5 µM |
| CCOP(=O)(CCCOCn1cnc2c(=O)[nH]c(N)nc21)OCC |  | AD169 | plaque count | MRC-5 | EC50 | >2780 µM |
| Cc1cc(C)cc(Cn2c(SCc3ccccc3)nccc2=S)c1 |  | AD169 |  |  | EC50 | 4.5 µM |
| CC(=O)Nc1n[nH]c(=O)c2c1ncn2[C@@H]1O[C@H](CO)[C@@H](O)[C@H]1O |  |  | plaque count | HFF | EC50 | >100 µM |
| O=c1c(Cl)cc2nnn3c2n1[C@@H]1O[C@H](C3)[C@@H](O)[C@H]1O |  |  |  | Huh7 | EC90 | 2.1 µM |
| Nc1nc2c(ncn2C=C2CC2CO)c(=O)[nH]1 |  | VR6189 (ganciclovir-susceptible) | plaque count |  | EC90 | 4.9 µM |
| Nc1nc2c(ncn2CO[C@H](CO)CCP(=O)(O)O)c(=O)[nH]1 |  | AD169 | plaque count | MRC-5 | EC50 | 66 µM |